Pooled drug test results. Numbers come from NIAID ChemDB, via PubChem.

All rows: target-level tests; organism: HIV-1; target: Integrase; read-out: IC50

Blank or dashed fields: not listed here.

structure,mutations,method,strain or isolate,value
O=C1Sc2ccccc2C(=O)N2CS(=O)CC12,,3′ processing,,192 µM
O=C1/C(=C/c2ccc(O)c([N+](=O)[O-])c2)CNC/C1=C\c1ccc(O)c([N+](=O)[O-])c1,,3′ processing,,>100 µM
O=C(O)c1c[nH]c2c(ccc3[nH]cc(C(=O)O)c(=O)c32)c1=O,,strand transfer,,43–51 µM
C/C=C/C=C/[C@@H]1C=C[C@@H]2C[C@H](C)CC[C@H]2[C@]1(C)/C(O)=C1/C(=O)[C@H](CO)N(C)C1=O,,strand transfer,,11 µM
O=C(C[C@@H](O)CCc1ccc(O)c(O)c1)O[C@H]1Cc2c(O)cc(O)cc2O[C@@H]1c1ccc(O)c(O)c1,,strand transfer,RF,1 µM
O=C=Nc1cc(S(=O)(=O)c2ccc(Cl)c(N=C=O)c2)ccc1Cl,,strand transfer,,90 µM
C[C@@](O)(/C=C/[C@H]1CC=CC(=O)O1)[C@@H](C[C@@H](O)\C=C/C=C\C=C\CO)OP(=O)(O)O,,strand transfer,,1.6–2.7 µM
O=C(Nc1ccccc1)C(=S)Nn1c(O)c(/C=C2\C=Nc3ccccc32)sc1=S,,3′ processing,,>100 µM
Cn1cc(NC(=O)c2cc(NC(=O)c3cc(NC(=O)CCCCCCC(=O)Nc4cc(C(=O)Nc5cc(C(=O)Nc6cc(C(=O)NCCC(=N)N)n(C)c6)n(C)c5)n(C)c4)cn3C)cn2C)cc1C(=O)NCCC(=N)N,,3′ processing,,0.025 µM
Nc1ccn(C2C[C@H](O)[C@@H](COP(=O)(O)O[C@H]3[C@H](n4cnc5c(N)ncnc54)CO[C@@H]3COP(=O)(O)O)O2)c(=O)n1,,3′ processing,,19 µM
CN(C)C1C(=O)C(C(=O)NCNC(CCS(C)=O)C(=O)[O-])=C(O)C2(O)C(=O)C3=C(O)c4c(O)cccc4C(C)(O)C3CC12.[Na+],,strand transfer,RF,1.7 µM
O=C1OC(c2ccccc2)/C(=C(\O)c2ccc(Cl)cc2)C1=O,,,,0.9 µM
Cn1cc(NC(=O)c2cc(NC(=O)c3cc(NC=O)cn3C)cn2C)cc1C(=O)NCCC(=N)N,,3′ processing,,56.9 µM
C[C@@H]1CCO[C@H]2Cn3cc(C(=O)NCc4ccc(F)cc4F)c(=O)c(O)c3CN12,N155H,,,0.032 µM
CN(C)CCCNC(=O)c1cc(NC(=O)c2cc(NC(=O)c3cc(NC(=O)c4cncc(C(=O)Nc5cc(C(=O)Nc6cc(C(=O)Nc7cc(C(=O)NCCCN(C)C)n(C)c7)n(C)c6)n(C)c5)c4)cn3C)cn2C)cn1C,,3′ processing,,100 µM
O=C(/C=C(\O)c1ccccn1)c1ccccn1,,,,61.4 µM
CN(C)Cc1ccc2n1C(=O)c1ccccc1SC2c1ccc(F)cc1,,strand transfer,,>1000 µM
CO[C@H]1/C=C/O[C@@]2(C)Oc3c(C)c(O)c4c(O)c(c(/C=N/N5C(C)CN(Cc6ccc([N+](=O)[O-])cc6)CC5C)c(O)c4c3C2=O)NC(=O)/C(C)=C\C=C\[C@H](C)[C@H](O)[C@@H](C)[C@@H](O)[C@@H](C)[C@H](OC(C)=O)[C@@H]1C,,3′ processing,RF,20.6 µM
COc1cc(O)c2c(=O)c(O[C@@H]3O[C@@H](CO)[C@H](O)[C@H]3O)c(-c3ccc(O)c(O)c3)oc2c1,,3′ processing,,66.07 µM
Cc1nc2c(-c3ccc(Br)cc3)cccc2c(-c2ccc3c(c2)OCCO3)c1C(OC(C)(C)C)C(=O)O,,strand transfer / fluorescence,,0.05 µM
NCCCNCCCCNCCCN,,3′ processing,,>100 µM
O=C1/C(=C/c2cc(O)c(O)c(O)c2)CCC/C1=C\c1cc(O)c(O)c(O)c1,,3′ processing,,1.4 µM
O=c1c(O)c(-c2cc(O)c(O)c(O)c2)oc2cc(O)ccc12,,3′ processing,,5.89 µM
O=C1/C(=C/c2ccc([N+](=O)[O-])c(O)c2)CN(Cc2ccccc2)C/C1=C\c1ccc([N+](=O)[O-])c(O)c1,,strand transfer,,>100 µM
COc1cc(C)c2c(c1C=O)Oc1c(c(C)c(O)c3c1C(O)OC3=O)OC2=O,,strand transfer,,28.1–39.2 µM
[N-]=[N+]=NC(=O)c1ccc(S(=O)(=O)c2ccc(F)cc2)cc1,,strand transfer,,90 µM
O=C(CNC(=O)c1cnc2ccccc2n1)NCCCNC(=O)CNC(=O)c1cnc2ccccc2n1,,3′ processing / substrate cleavage,,200 µM
O=C1Sc2ccccc2C(=O)N2CCCCC12,,3′ processing,,450 µM
O=C(O)c1cc(-c2cn(Cc3ccc(F)cc3)cc2-c2ccccc2)n[nH]1,,strand transfer,,>333 µM
O=C(NCc1nccs1)c1nc(-c2cccs2)[nH]c(=O)c1O,,strand transfer / absorbance,,0.085 µM
O=C1OC2C(O)COC2(O)C1(O)Cc1cc(O)c(O)c(Br)c1Br,,strand transfer,,6.1–9.8 µM
O=[N+]([O-])c1cc(S(=O)(=O)c2ccc(O)c([N+](=O)[O-])c2)ccc1O,,strand transfer,,>100 µM
CN(C)CCCNC(=O)c1cc(NC(=O)c2cc(NC(=O)c3cc(NC4C(=O)c5ccccc5C4=O)cn3C)cn2C)cn1C,,3′ processing,,11.1 µM
O=c1c(O)c(-c2ccc(O)c(O)c2)oc2cc(O)ccc12,,3′ processing,,28.18 µM
O=C1c2ccc(O)c(O)c2C(=O)N1Cc1ccc(F)c(F)c1,,3′ processing,,48 µM
COc1cccc2c1C(=O)c1c(O)c3c(c(O)c1C2=O)C[C@@](O)(C(=O)CO)C[C@@H]3O[C@H]1C[C@H](N(C)C)[C@H](O)[C@H](C)O1,,strand transfer,RF,4.1 µM
O=c1c(O)c(-c2ccc(O)c(O)c2)oc2c(O[C@@H]3O[C@H](CO)[C@@H](O)[C@H](O)[C@H]3O)c(O)cc(O)c12,,3′ processing,,69.18 µM
O=C(O)/C=C/c1cc(C(=O)O)c(O)c2nc(/C=C/c3ccc(O)c(O)c3)ccc12,,3′ processing,,0.3 µM
COc1cc(O)c2c(=O)c(O)c(-c3ccc(O)c(O)c3)oc2c1,,3′ processing,,61.66 µM
CC(=O)c1cc(C(=O)CC(=O)Nc2ccccc2)sc1Nc1ccccc1,,3′ processing,,100 µM
COC(=O)/C=C/c1ccccc1,,3′ processing,,>100 µM
O=C1Sc2ccc(Cl)cc2C(=O)N2CS(=O)CC12,,3′ processing,,237 µM
Cc1cc(Cc2cc(C)c(O)c(C(=O)O)c2)cc(C(=O)O)c1O,,strand transfer,,0.9–1.1 µM
Cn1cc(NC(=O)c2cc(NC(=O)CCCCCCCCCC(=O)Nc3cc(C(=O)Nc4cc(C(=O)NCCC(N)=[NH2+])n(C)c4)n(C)c3)cn2C)cc1C(=O)NCCC(N)=[NH2+],,3′ processing,,64.8 µM
N#Cc1ccc(S(=O)(=O)c2ccc(C#N)cc2)cc1,,3′ processing,,>100 µM
CN(C)CCCNC(=O)c1cc(NC(=O)c2cc(NC(=O)c3cc(NC(=O)c4ccc(C(=O)Nc5cc(C(=O)Nc6cc(C(=O)Nc7cc(C(=O)NCCCN(C)C)n(C)c7)n(C)c6)n(C)c5)nc4)cn3C)cn2C)cn1C,,3′ processing,,0.31 µM
O=C(/C=C/c1ccc(O)c(O)c1)O[C@H]1[C@H](O)C[C@](O)(C(=O)O)C[C@H]1OC(=O)/C=C/c1ccc(O)c(O)c1,,strand transfer,,40.5–43.9 µM
O=C(/C=C(\O)c1ccc(Cl)cc1)C(=O)NNC(=O)c1ccccc1Nc1ccccc1,,,,21.2 µM
CC(C)CCCCCCCCCCCSCNc1ccc(S(=O)(=O)c2ccc(NCSCCCCCCCCCCCC(C)C)cc2)cc1,,3′ processing,,90 µM
CCCCCc1cc(O)cc2c1Oc1cc(O)cc(C(=O)CCCC)c1C(=O)O2,,strand transfer,,123.7 µM
O=C1c2c(ccc(O)c2O)CN1Cc1ccccc1,,strand transfer,,12 µM
CCCCCCCCCCCCCCCCOC(=O)C(CCSC)NCNc1ccc(S(=O)(=O)c2ccc(NCNC(CCSC)C(=O)OCCCCCCCCCCCCCCCC)cc2)cc1,,3′ processing,,>100 µM
O=C1NC(=S)NC(=O)C1=Cc1cc(O)c(O)c(O)c1,,3′ processing,,1 µM
O=C1c2ccccc2SCC2CSC(c3ccccc3)N12,,3′ processing,,241 µM

3 of the rows above, restated:

| structure | mutations | method | strain or isolate | value |
|---|---|---|---|---|
| O=C1/C(=C/c2cc(O)c(O)c(O)c2)CCC/C1=C\c1cc(O)c(O)c(O)c1 |  | 3′ processing |  | 1.4 µM |
| O=C(/C=C(\O)c1ccccn1)c1ccccn1 |  |  |  | 61.4 µM |
| O=c1c(O)c(-c2ccc(O)c(O)c2)oc2cc(O)ccc12 |  | 3′ processing |  | 28.18 µM |

ICn is the concentration giving n% inhibition. Conditions beyond the fields shown may differ between rows. a–b is a range or a potency band.